Experimental data as given in patent publication US20230111504A1, “COR[…] AND AVERMECTINS” (Huvepharma EOOD, priority 2020, published 2023).

Chains of the proteins cited; added tags and fusions are not shown. Lines headed by an entry give the natural chain unless they say otherwise; changes in a name come on top.
UniProt P08684, whole entry: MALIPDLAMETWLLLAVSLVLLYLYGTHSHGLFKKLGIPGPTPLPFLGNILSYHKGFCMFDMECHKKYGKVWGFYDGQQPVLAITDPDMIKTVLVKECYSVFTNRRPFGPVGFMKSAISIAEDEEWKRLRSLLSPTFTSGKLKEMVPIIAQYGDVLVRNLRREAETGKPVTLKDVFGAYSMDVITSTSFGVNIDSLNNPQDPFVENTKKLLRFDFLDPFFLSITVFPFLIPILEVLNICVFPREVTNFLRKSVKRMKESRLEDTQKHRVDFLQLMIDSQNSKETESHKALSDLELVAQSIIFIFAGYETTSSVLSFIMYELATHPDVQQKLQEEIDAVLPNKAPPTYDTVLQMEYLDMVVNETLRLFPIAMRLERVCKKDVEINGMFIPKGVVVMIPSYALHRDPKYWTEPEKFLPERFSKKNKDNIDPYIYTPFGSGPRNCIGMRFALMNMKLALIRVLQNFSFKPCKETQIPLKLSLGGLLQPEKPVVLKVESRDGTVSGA
UniProt P10635, whole entry: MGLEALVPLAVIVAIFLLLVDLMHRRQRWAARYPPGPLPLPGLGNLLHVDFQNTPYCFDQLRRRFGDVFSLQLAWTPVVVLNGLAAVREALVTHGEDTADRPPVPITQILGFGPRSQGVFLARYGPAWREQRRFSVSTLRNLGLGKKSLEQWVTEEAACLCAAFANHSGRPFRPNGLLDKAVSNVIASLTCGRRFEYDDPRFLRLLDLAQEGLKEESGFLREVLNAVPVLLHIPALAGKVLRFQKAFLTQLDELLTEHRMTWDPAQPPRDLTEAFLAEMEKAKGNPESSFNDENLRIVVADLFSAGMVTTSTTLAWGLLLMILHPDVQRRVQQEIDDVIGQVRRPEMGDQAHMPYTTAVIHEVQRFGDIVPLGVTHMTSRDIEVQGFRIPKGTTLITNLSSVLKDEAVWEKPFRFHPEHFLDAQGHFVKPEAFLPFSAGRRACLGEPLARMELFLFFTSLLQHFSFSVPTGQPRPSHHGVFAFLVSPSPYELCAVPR
UniProt P11712, whole entry: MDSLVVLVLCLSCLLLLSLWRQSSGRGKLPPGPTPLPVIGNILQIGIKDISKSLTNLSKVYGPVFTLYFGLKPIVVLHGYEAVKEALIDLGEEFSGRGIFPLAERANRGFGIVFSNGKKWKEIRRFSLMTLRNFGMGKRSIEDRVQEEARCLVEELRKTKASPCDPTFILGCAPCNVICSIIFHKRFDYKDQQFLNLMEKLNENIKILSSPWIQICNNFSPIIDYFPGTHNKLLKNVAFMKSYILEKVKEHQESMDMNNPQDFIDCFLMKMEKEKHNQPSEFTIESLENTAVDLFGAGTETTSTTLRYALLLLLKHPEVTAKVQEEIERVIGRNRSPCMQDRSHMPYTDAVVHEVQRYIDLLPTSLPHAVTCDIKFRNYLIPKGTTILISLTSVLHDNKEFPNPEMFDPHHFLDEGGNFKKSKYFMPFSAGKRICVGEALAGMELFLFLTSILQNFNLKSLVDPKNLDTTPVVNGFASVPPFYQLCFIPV
UniProt P05181: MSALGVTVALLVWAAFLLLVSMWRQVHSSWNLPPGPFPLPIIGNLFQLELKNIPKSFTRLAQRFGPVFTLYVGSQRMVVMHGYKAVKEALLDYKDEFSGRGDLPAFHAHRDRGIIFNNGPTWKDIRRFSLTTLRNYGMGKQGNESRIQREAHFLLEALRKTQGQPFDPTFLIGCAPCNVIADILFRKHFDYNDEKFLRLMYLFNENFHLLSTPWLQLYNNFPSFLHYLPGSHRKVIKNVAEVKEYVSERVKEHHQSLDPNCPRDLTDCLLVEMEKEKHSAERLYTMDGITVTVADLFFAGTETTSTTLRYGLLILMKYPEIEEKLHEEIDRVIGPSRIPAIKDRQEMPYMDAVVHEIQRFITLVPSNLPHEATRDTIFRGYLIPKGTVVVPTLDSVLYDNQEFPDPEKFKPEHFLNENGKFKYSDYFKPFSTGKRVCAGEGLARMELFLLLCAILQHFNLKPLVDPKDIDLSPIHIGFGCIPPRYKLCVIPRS

What was measured:
COVID-19 = COVID-19 clinical trial: clinical improvement on WHO 9-category ordinal scale; type: in vivo, human
Protocol: Inclusion Criteria • 1. Male or female patients at least 18 years and up to 75 years old • 2. Signed informed consent • 3. Admitted to hospital for treatment of COVID-19. • 4. Patient within 7 days from symptom onset and within 72 hours after laboratory diagnosis (SARS-CoV-2 RT-PCR) • 5. Mild to Moderate COVID-19 disease defined as clinical status category up to 3 on the WHO 9-point ordinal scale, and/or NEWS2 score of 0 to 4 inclusive. • Hospitalized, no oxygen treatment • 6. Presence of at least 1 symptom characteristic for COVID-19 disease, e.g. fever, cough, sore throat, myalgia, fatigue, GI disorders, skin lesions, anosmia, ageusia, headache, etc • 7. In women of childbearing potential, negative pregnancy test and commitment to use contraceptive method throughout the study.
Patients are screened for 24-36 hours. The patients are randomized on Day 1 and treated with ivermectin/placebo+SoC (if required) for 3 days (Day 1-Day 3). […]
The clinical disease severity during the study will be assessed based on the WHO Ordinal Scale for Clinical Status (Table 2). […]
The same picture was observed on Day 5, with difference 18% (p=0.03 . . . ), regarding the endpoint Clinical improvement. This endpoint was measured using WHO 9-category ordinal scale, developed to have a standardized measure of the COVID-19 disease severity. […]

[1] = acute oral, rhesus monkeys; cited from earlier work
[2] = 30 mg oral, high-fat (48.6 g of fat) meal vs fasted; cited from earlier work
CYP3A4 [3] = molecular target: T1, CYP3A4 (Homo sapiens, UniProt P08684); conditions: human liver microsomes and recombinant CYP450 enzymes; cited from earlier work
T1 construct: host or cells: human liver microsomes and recombinant CYP450 enzymes

CYP3A4 [4] = molecular target: T1, CYP3A4; conditions: clinically relevant concentrations, human liver microsomes; cited from earlier work
CYP2D6 = molecular target: T2, CYP2D6 (Homo sapiens, UniProt P10635); conditions: clinically relevant concentrations, human liver microsomes; cited from earlier work
T2 construct: from tissue; host or cells: human liver microsomes

CYP2C9 = molecular target: T3, CYP2C9 (Homo sapiens, UniProt P11712); conditions: clinically relevant concentrations, human liver microsomes; cited from earlier work
T3 construct: from tissue; host or cells: human liver microsomes

CYP2E1 = molecular target: T4, CYP2E1 (Homo sapiens, UniProt P05181); conditions: clinically relevant concentrations, human liver microsomes; cited from earlier work
T4 construct: from tissue; host or cells: human liver microsomes

For ivermectin, the “Odds ratio of clinical improvement” value (COVID-19; fifth and the next days) is listed as “decrease but remain higher”, the “Odds ratio: chances of clinical improvement versus SoC arm” value (COVID-19; fourth day, FIG. 4) is listed as “more than twice higher” and the “minimum toxic dose relative to the clinical dose” value [1] is listed as “approximately 10 fold”. The “increase in bioavailability after high-fat meal relative to fasted state” value [2] was about 2.5 fold, the main metabolizing enzyme (CYP3A4 [3]) was “primarily metabolized by CYP3A4” and the “inhibition of metabolizing activity of CYP3A4” value (CYP3A4 [4]) was “do not significantly inhibit”. For the same substance, the “inhibition of metabolizing activity of CYP2D6” value (CYP2D6) was “do not significantly inhibit”, the “inhibition of metabolizing activity of CYP2C9” value (CYP2C9) was “do not significantly inhibit” and the “inhibition of metabolizing activity of CYP2E1” value (CYP2E1) was “do not significantly inhibit”.
